Measured values from the supplement of paper PMC9931576.
Human monoclonal antibodies against the spike receptor-binding domain (heavy:light variable regions). IC50 against pseudoviruses bearing the spike of naturally observed variants; lower = stronger; >10 µg/ml means not reached at the top dose. No active / inactive call. The stated detection limit is 0.0005 µg/ml; values near or below 0.001 µg/ml lie at the floor of the assay.

B1: BD55-3433 (protein)
chain 1: QVQLVQSDPELKEPGASVRISCKASGYIFTTYAMNWVRQAPGQGLEWMGWINPNTGTPTYAQGFTGRFVFSLDTPVSTAYLQISSLKAQDTAIYYCARDPGGSATSGFDSWGQGTLVTVSS
chain 2: DIVMTQSPATLSVSPGARATLSCRASHSVSSHLAWYQQRPGQAPRLLINGASTRATGIPDRFSGSGSGTEFTLTISSLQSEDFAVYYCHQYSYWPITFGQGTRLEIK
B2: BD55-3549 (protein)
chain 1: EVQLVESGGGLVQPGGSLRLSCAASGFTFSTYDMHWVRQTTGKGLEWLSTIGTSGDTYYADSVRGRFTISRENAKNSLHLQISSLGAGDTAVYYCARAEFSGYVLFFDHWGQGTLVTVSS
chain 2: DIQMTQSPSSLSASVGDRVTITCRASQSVGIYLNWYQQKPGKAPKLLIYAASSLQSGVPSRFSGSGSGTDFTLTIISLQPEDFATYYCQQSYTTFSLTFGGGTKVEIK
B3: BD55-3602 (protein)
chain 1: QVQLVESGGGVVQPGSSLRLSCAASGFTFSNYDIHWVRQAPGKGLEWVAVISHDGSSKFYGDSVKGRVAISRDSSKTTLQLSSLRAEDTAVYFCAKEQIYDTLTGLNYFDNWGQGTLVTVSS
chain 2: DIQMTQSPSSLSASVGDRVTITCRASQSISSHLNWYQQNPGKAPKPLIYAASNLHSGVPSRFSGSGVGTHFTLTISSLQPEDFATYYCQQSYNTPQITFGPGTKVDI
B4: BD55-3807 (protein)
chain 1: QVQLQESGPGLVKPSQTLSLTCTVSGGSISSGGYYWSWIRQHPGKGLEWIGYIYYTGSTYYNPSLKSRVTISVDTSKNQFSLKLNSVTAADTAVYYCARGKMYYDVLTGYYKGDWFDPWGLGTLVTVSS
chain 2: QSALTQPASVSGSPGQSITISCTGTSSDVFGYNYVSWYQQQPGKAPKLMIFDVSNRPSGVSNRFSGSKSGNTASLTISGLQAEDEADYYCSSYTNSSPLFGGGTKLTVL
B5: BD55-3670 (protein)
chain 1: QLQLQESGPGLVKPSETLSLICSVSGGSISSRSYRWGWIRQSPGKGLEWIGSISYSGNIDRNPSLKSRVTISVDSSKNKFSLKLSSVTATDTAVYYCARHSGYDFYFDSWGQGTLVTVSS
chain 2: DIHMTQSPSTLSASVGDRVTITCRASQSISRWLAWYQQRPGKAPNLLIYMASILESGVPSRFSGSGSGTEFTLTISSLQPDDFATYYCQQYNSDSVTFGPGTKVDIK
B6: BD55-3773 (protein)
chain 1: QVQLVQSGAEVKKPGASVKVSCKASGYIFTNYGISWVRQAPGQGLEWMGWISAYKSNTEYAQKFQGRVTMTIDKSTSIAYMELRSLRSDDTAVYYCARDRHYYGSGSFCDYWGQGTLVAVSS
chain 2: DVVMTQSPLSLPVTLGQPASISCRSSQSLVYSDGNTFLNWFQQRPGQSPRRLIYEVSHRDSGVPERFSGSGSATDFTLKISRVEAEDVGVYYCMQGTHWPPTFGQGTKVEIK
B7: BD55-3485 (protein)
chain 1: QVQLQESGPGLVKPSETLSLTCTVSGGSISSYFWTWIRQSPGKGLEWIGNIYYSGETKYNPSLKSRVTITVDTSKDVFSLILTSMTAADTAVYYCARGGGRWQQSDYYYGMDFWGQGTTVTVSS
chain 2: DIQMTQSPSSLSASVGDRVTITCRASQSIGRYLNWYQQKPGKAPRLLMYEATSLQSGVPSRFSGSGFGADFTLTISSLQPEDFATYYCQQSYSPSYTFGQGTKLEIK

What was measured:
Test in all cases: pseudovirus neutralization IC50; higher = weaker neutralization
[1] = molecular target: SARS-CoV-2 Omicron BA.1 spike pseudovirus
Protocol: (§1)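 Single-round VSV luciferase pseudovirus mixed with antibody dilutions for 1 h and put on Huh-7 cells for about a day; IC50 from the dose curve.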

[2] = molecular target: SARS-CoV-2 Omicron BA.2 spike pseudovirus
Protocol: as §1

[3] = molecular target: SARS-CoV-2 Omicron BA.2.75 spike pseudovirus
Protocol: as §1

[4] = molecular target: SARS-CoV-2 Omicron BA.5 spike pseudovirus
Protocol: as §1

[5] = molecular target: SARS-CoV-2 Omicron BQ.1.1 spike pseudovirus
Protocol: as §1

[6] = molecular target: SARS-CoV-2 Omicron XBB spike pseudovirus
Protocol: as §1

[7] = molecular target: SARS-CoV-2 early D614G spike pseudovirus
Protocol: as §1

Row | Binder | pseudovirus neutralization IC50 [1] [µg/mL] | pseudovirus neutralization IC50 [2] [µg/mL] | pseudovirus neutralization IC50 [3] [µg/mL] | pseudovirus neutralization IC50 [4] [µg/mL] | pseudovirus neutralization IC50 [5] [µg/mL] | pseudovirus neutralization IC50 [6] [µg/mL] | pseudovirus neutralization IC50 [7] [µg/mL]
1 | B1 | 4.09 | 3.22 | > 10 | 4.27 | > 10 | > 10 | 0.002
2 | B2 | > 10 | > 10 | > 10 | > 10 | > 10 | > 10 | > 10
3 | B3 | > 10 | > 10 | > 10 | > 10 | > 10 | > 10 | 5.23
4 | B4 | > 10 | > 10 | > 10 | > 10 | > 10 | > 10 | > 10
5 | B5 | > 10 | > 10 | > 10 | > 10 | > 10 | > 10 | > 10
6 | B6 | 2.89 | 4.29 | 3.35 | 3.51 | > 10 | > 10 | 0.516
7 | B7 | 4.3 | 5.55 | 5.65 | 5.3 | 4.81 | 6.07 | 6.36
